The values below are quoted from earlier work in publication PMC5540582.

The target of the data set is HIV-1 capsid protein CA CA (Human immunodeficiency virus 1) (UniProt O93182).

For orientation: Kd means the free concentration of one partner at which half of the binding sites on the other are occupied at equilibrium, for simple one-to-one binding. In the case of Cyclophilin A (from UniProt P62937), the Kd was 16 µM.
